This data set relates to MRC5. Briefly: Cytotoxicity in human MRC5 cells by neutral red uptake assay. The format is cell-based.

Consider `O=c1[nH]c(SCc2cc([N+](=O)[O-])cc([N+](=O)[O-])c2)nc2ccc([N+](=O)[O-])cc12`, for which half-maximal cytotoxicity (CC50) was put at 34 µM.

The values are drawn from ChEMBL document CHEMBL4765469, “2-((3,5-Dinitrobenzyl)thio)quinazolinones: Potent Antimycobacterial Agents Activated by Deazaflavin (F)-Dependent Nitroreductase (Ddn)” (J Med Chem, 2021).
